PubChem BioAssay AID504761, Drosophila RNAi Screening Center – 2011
The screen tested about 22,000 reagents; shown is a random part of those that have a named target and a result. Of all reagents, 116 (0.52%) are marked active. 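Calls depend on retest data that are not deposited; infection was ranked per plate without normalising between plates; the unit of the infection score is not given.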 Further read-outs or replicates are left out here. Not stated in the record: the amount of reagent, the time to read-out.

Aim: 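Insect host genes that dengue virus relies on to spread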 (primary screen)
Cells: D.Mel-2 cells from Drosophila
Knock-down reagent: long dsRNA against Drosophila genes
Treatment: infection with dengue virus type 2; dose and infection time not stated
Read-out: 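Per well on two replicate plates, imaging gave the percent of cells positive for viral envelope protein, ranked by infection, and a nuclear count of cells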
Reading the numbers: infection score: higher = more virus-infected cells
Active means: 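Very low infection ranking in both replicate wells (chance probability at most 0.065), then a retest showing infection dropped 1.5-fold or more at p below 0.05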
Calls: active = confirmed: knock-down lowers infection; inactive = not picked or not confirmed

Hrd3 (GeneID 42806) [DRSC14156]: infection score, replicate 1 = 2.53; call = inactive
Tet (GeneID 38347) [DRSC08550]: infection score, replicate 1 = 10.7; call = inactive
Tet (GeneID 38347) [DRSC28377]: infection score, replicate 1 = 14.3; call = inactive
Cyp313a4 (GeneID 41563) [DRSC16627]: infection score, replicate 1 = 3.27; call = inactive
Gga (GeneID 31902) [DRSC18260]: infection score, replicate 1 = 2.74; call = inactive
Gga (GeneID 31902) [DRSC27761]: infection score, replicate 1 = 3.02; call = inactive
Doc3 (GeneID 39036) [DRSC10480]: infection score, replicate 1 = 3.69; call = inactive
Doc3 (GeneID 39036) [DRSC28205]: infection score, replicate 1 = 17.6; call = inactive
Fpps (GeneID 36209) [DRSC07429]: infection score, replicate 1 = 26.6; call = inactive
CG18284 (GeneID 34460) [DRSC02661]: infection score, replicate 1 = 8.13; call = inactive
CG18284 (GeneID 34460) [DRSC20756]: infection score, replicate 1 = 0.87; call = inactive
CG18284 (GeneID 34460) [DRSC25271]: infection score, replicate 1 = 17.5; call = inactive

A few values from the entries so far:
Hrd3 (GeneID 42806) [DRSC14156], call: inactive
Result for Fpps (GeneID 36209) [DRSC07429] under “infection score, replicate 1”: 26.6
